Compound potency records, mixed from different reports. Data source: NIAID ChemDB in PubChem.

All rows: whole-cell or culture tests; agent: HIV-1; cell line: CEM; measure: EC50

Lines come from different laboratories, so protocols vary. An empty or dashed field is not shown. ECn: concentration that inhibits the pathogen or its effect by n%.

CC(C)CNc1nc(N)nc2c1ncn2CCOCP(=O)(O)O ; strain: IIIB ; read by: cytopathic effect / MTT ; value: 0.5 µg/mL
Cc1ccnc2c1NC(=O)c1cccnc1N2C1CC1 ; mutations: RT-Y181C ; read by: cytopathic effect ; value: 3.04 µM
CCCCNc1nc(N)nc2c1[nH]c[n+]2C[C@@H](C)OCP(=O)(O)O ; strain: IIIB ; read by: cytopathic effect / MTT ; value: 10 µg/mL
Cc1cn([C@H]2C[C@H](F)[C@@H](COP(=O)(O)O)O2)c(=S)[nH]c1=O ; read by: syncytia ; value: 0.5 µM
CCCCC(Sc1cc(Cl)c(C)cc1S(=O)(=O)Nc1n[nH]c(N)n1)C(=O)OC ; strain: RF ; read by: cytopathic effect / XTT ; value: >112 µM
Cc1occc1C(=S)Nc1ccc(Cl)c(C(=O)OC2CCCC2)c1 ; strain: IIIB ; read by: syncytia ; value: 0.005 µg/mL
Fc1cccc(F)c1C1SCc2nc3ccccc3n21 ; mutations: RT-L100I ; read by: cytopathic effect ; value: 3.12 µM
CCOCn1c(Cc2ccccc2)c(C(C)C)c(=O)[nH]c1=O ; strain: A-0 (RT-L100I) ; mutations: RT-L100I ; read by: cytopathic effect ; value: 0.0028 µg/mL
Cc1cn([C@@H]2O[C@H](CO[Si](C)(C)C(C)(C)C)C3(OS(=O)(=O)C=C3N)[C@H]2O[Si](C)(C)C(C)(C)C)c(=O)n(C)c1=O ; strain: NEV(RT-V106A) ; mutations: RT-V106A ; read by: syncytia ; value: 3.7 µM
Nc1nc2c(ncn2[C@H]2C=C[C@@H](CO)C2)c(=O)o1 ; strain: IIIB ; read by: RT activity ; value: 42 µg/mL
Cc1ccnc2c1NC(=O)c1cccnc1N2C1CC1 ; strain: IIIB ; read by: syncytia ; value: 0.027 µg/mL
Nc1nc2c(ncn2[C@@H]2C[C@H](COP(=O)(O)O)[C@@H](O)[C@H]2O)c(=O)o1 ; strain: IIIB ; read by: RT activity ; value: 62 µg/mL
COC(=O)CSc1cc(Cl)c(C)cc1S(=O)(=O)Nc1n[nH]c(N)n1 ; strain: RF ; read by: cytopathic effect / XTT ; value: >200 µM
Cc1ccnc(N2C(=O)CSC2c2c(Cl)cccc2Cl)n1 ; mutations: RT-Y188H ; read by: cytopathic effect ; value: 7.35 µM
CC(C)NCC(O)c1ccc(O)c(O)c1 ; strain: IIIB ; read by: syncytia ; value: 20 µg/mL
Nc1nc(Nc2cccc3ccccc23)c2ncn(CCOCP(=O)(O)O)c2n1 ; strain: IIIB ; read by: cytopathic effect / MTT ; value: >100 µg/mL
Cc1cc(S(=O)(=O)Nc2nnc3ccc4ccccc4n23)c(S)cc1Cl ; strain: RF ; read by: cytopathic effect / XTT ; value: >30.8 µM
CC(C)=CCN1Cc2cc(Cl)cc3[nH]c(=S)n(c23)C[C@@H]1C ; strain: IIIB TIBO R82150-resistant (RT L100I) ; mutations: RT-L100I ; read by: syncytia ; value: 1.7 µM
Cc1cn([C@H]2C[C@H](N=[N+]=[N-])[C@@H](COC(=O)c3cccnc3)O2)c(=O)[nH]c1=O ; strain: IIIB ; read by: syncytia ; value: 0.4 µg/mL
Nc1ncnc2c1ncn2CC(CF)OCP(=O)(O)O ; strain: IIIB TIBO R82913 STR-B02 (RT L100I E138K) ; mutations: RT-L100I E138K ; read by: syncytia ; value: 4 µM
C[C@H](C[n+]1c[nH]c2c(NCCCC3CCCCC3)nc(N)nc21)OCP(=O)(O)O ; strain: IIIB ; read by: cytopathic effect / MTT ; value: 2 µg/mL
Cc1cc(S(=O)(=O)Nc2nc(N)n(-c3ccccc3)n2)c(S)cc1Cl ; strain: RF ; read by: cytopathic effect / XTT ; value: 126.6 µM
Cc1cn([C@@H]2O[C@H](CO[Si](C)(C)C(C)(C)C)C3(OS(=O)(=O)C=C3N)[C@H]2O[Si](C)(C)C(C)(C)C)c(=O)n(C)c1=O ; strain: IIIB ; mutations: RT-K103N ; read by: syncytia ; value: 0.138 µg/mL
Cc1cc(S(=O)(=O)Nc2n[nH]c(Nc3ccccc3)n2)c(SSc2cc(Cl)c(C)cc2S(=O)(=O)Nc2n[nH]c(Nc3ccccc3)n2)cc1Cl ; strain: RF ; read by: cytopathic effect / XTT ; value: 6.2 µM
COc1cc(C)nc(N2C(=O)CSC2c2c(Cl)cccc2Cl)n1 ; mutations: RT-Y188H ; read by: cytopathic effect ; value: 6.21 µM
Nc1nc(NCCc2ccccc2)c2ncn(CCOCP(=O)(O)O)c2n1 ; strain: IIIB ; read by: cytopathic effect / MTT ; value: 16 µg/mL
CCNc1cccnc1N1CCN(C(=O)c2cc3cc(OC)ccc3[nH]2)CC1 ; strain: IIIB-TIBO(0.1) ; read by: syncytia ; value: 0.12 µg/mL
Cc1ccc(Nc2nc(NS(=O)(=O)c3cc(C)c(Cl)cc3S)n[nH]2)cc1 ; strain: RF ; read by: cytopathic effect / XTT ; value: 180 µM
Nc1nc2c(ncn2[C@H]2C[C@H](O)[C@@H](CO)O2)c(=O)o1 ; strain: IIIB ; read by: RT activity ; value: 4.8 µg/mL
Cc1occc1C(=S)Nc1ccc(Cl)c(/C=N/OC(C)(C)C)c1 ; strain: IIIB ; mutations: RT-Y188L ; read by: syncytia ; value: 0.65 µg/mL
CC(C)=CCN1Cc2cc(Cl)cc3[nH]c(=S)n(c23)C[C@@H]1C ; strain: TIBO-2(RT-K103N) ; mutations: RT-K103N ; read by: syncytia ; value: 13 µM
Cc1cn([C@H]2C[C@H](N=[N+]=[N-])[C@@H](CO)O2)c(=O)[nH]c1=O ; strain: B-1 (RT L100V K103R/K Y188H) ; mutations: RT-L100V K103R/K Y188H ; read by: cytopathic effect ; value: 0.004 µM
Cc1cc(S(=O)(=O)Nc2n[nH]c(N)n2)c(SCc2nc(N)nc(N(C)C)n2)cc1Cl ; strain: RF ; read by: cytopathic effect / XTT ; value: >200 µM
CCc1cc(NCc2nc3c(Cl)ccc(Cl)c3o2)c(=O)[nH]c1C ; strain: MN ; read by: syncytia ; value: 0.03 µM
NCC(O)c1ccc(O)c(O)c1 ; strain: IIIB ; read by: syncytia ; value: 9 µg/mL
CC(C)Nc1cccnc1N1CCN(C(=O)c2cc3cc(NS(C)(=O)=O)ccc3[nH]2)CC1 ; strain: TSAO-m3T-resistant ; mutations: RT-E138K ; read by: cytopathic effect ; value: 0.021 µM
c1ccc(C2OCc3nc4ccccc4n32)cc1 ; strain: Nevirapine-resistant (RT V106A) ; mutations: RT-V106A ; read by: cytopathic effect / MTT ; value: >16.9 µM
Cc1cn([C@@H]2O[C@H](CO[Si](C)(C)C(C)(C)C)C3(OS(=O)(=O)C=C3N)[C@H]2O[Si](C)(C)C(C)(C)C)c(=O)n(C)c1=O ; strain: IIIB-TSAO-m3T(10)(RT-Y181C) ; mutations: RT-Y181C ; read by: syncytia ; value: ≥50 µg/mL
O=c1[nH]cnc2c1ncn2[C@H]1CC[C@@H](CO)O1 ; strain: IIIB TIBO R82150-resistant (RT L100I) ; mutations: RT-L100I ; read by: syncytia ; value: 15 µM
Cc1cn([C@H]2C[C@H](N=[N+]=[N-])[C@@H](CO)O2)c(=O)[nH]c1=O ; read by: syncytia ; value: 0.1 µM
Cc1cn([C@H]2C[C@H](N=[N+]=[N-])[C@@H](CO)O2)c(=O)[nH]c1=O ; mutations: RT-L100I ; read by: cytopathic effect ; value: 0.008 µM
CC[C@H]1C(=O)Nc2ccc(F)cc2N1C(=O)OC(C)C ; strain: NNRTI-resistant ; mutations: RT-K103N ; read by: cytopathic effect ; value: 0.14 µM
O=c1[nH]cnc2c1ncn2[C@H]1CC[C@@H](CO)O1 ; strain: IIIB-Pyridinone(0.1)(RT-V179N ; mutations: RT-V179N ; read by: syncytia ; value: 8.7 µM
COC(=O)c1cc(O)c(O)c(O)c1 ; strain: IIIB ; read by: syncytia ; value: 2 µg/mL
Cc1cc(C)nc(N2C(=O)CSC2c2c(Cl)cccc2Cl)n1 ; mutations: RT-Y188H ; read by: cytopathic effect ; value: 7.9 µM
CC[C@H]1C(=O)Nc2ccc(F)cc2N1C(=O)OC(C)C ; strain: D-3 (RT-V108I M184I) ; mutations: RT-V108I M184I ; read by: cytopathic effect ; value: 0.0015 µg/mL
Cc1cc(S(=O)(=O)Nc2nc(Nc3ccccc3)nn2C)c(S)cc1Cl ; strain: RF ; read by: cytopathic effect / XTT ; value: >149 µM
Cc1ccnc2c1NC(=O)c1cccnc1N2C1CC1 ; strain: IIIB-Nevirapine(0.1)(RT-Y181C) ; mutations: RT-Y181C ; read by: syncytia ; value: 4.1 µg/mL
Cc1cn([C@H]2C[C@H](N=[N+]=[N-])[C@@H](COC(=O)CNC(=O)c3cnccn3)O2)c(=O)[nH]c1=O ; read by: cytopathic effect / XTT ; value: >0.064 µM
Cc1ccnc2c1NC(=O)c1cccnc1N2C1CC1 ; strain: IIIB TSAO-T(RT-E138K) ; mutations: RT-E138K ; read by: syncytia ; value: 0.02 µM
CN(C)CCNc1ncnc2c1ncn2CCOCP(=O)(O)O ; strain: IIIB ; read by: cytopathic effect / MTT ; value: >100 µg/mL
Fc1cccc(F)c1C1OCc2nc3ccccc3n21 ; strain: IIIB ; read by: cytopathic effect / MTT ; value: 3.81 µM
Cc1cn([C@@H]2O[C@H](CO[Si](C)(C)C(C)(C)C)C3(OS(=O)(=O)C=C3N)[C@H]2O[Si](C)(C)C(C)(C)C)c(=O)n(C)c1=O ; strain: TSAO-m3T-resistant ; mutations: RT-E138K ; read by: cytopathic effect ; value: >80 µM
Nc1nc2c(ncn2[C@H]2CC[C@@H](CO)O2)c(=O)[nH]1 ; strain: IIIB TIBO R82913 STR-B22 (RT L100I Y188H) ; mutations: RT-L100I Y188H ; read by: syncytia ; value: 2 µM
CN(C)CCNc1nc(N)nc2c1ncn2CCOCP(=O)(O)O ; strain: IIIB ; read by: cytopathic effect / MTT ; value: 5.5 µg/mL
CCn1c(=O)c(C)cn([C@@H]2O[C@H](CO[Si](C)(C)C(C)(C)C)C3(OS(=O)(=O)C=C3N)[C@H]2O[Si](C)(C)C(C)(C)C)c1=O ; strain: IIIB TIBO R82913 STR-2 (RT K103N) ; mutations: RT-K103N ; read by: syncytia ; value: 0.32 µM
Cc1cn([C@H]2C[C@H](N=[N+]=[N-])[C@@H](COC(=O)CN3CCN(c4cc5c(cc4F)c(=O)c(C(=O)O)cn5C4CC4)CC3)O2)c(=O)[nH]c1=O ; read by: cytopathic effect / XTT ; value: 1.87 µM

The first 7 rows once more:

compound	strain	mutations	read by	value
CC(C)CNc1nc(N)nc2c1ncn2CCOCP(=O)(O)O	IIIB		cytopathic effect / MTT	0.5 µg/mL
Cc1ccnc2c1NC(=O)c1cccnc1N2C1CC1		RT-Y181C	cytopathic effect	3.04 µM
CCCCNc1nc(N)nc2c1[nH]c[n+]2C[C@@H](C)OCP(=O)(O)O	IIIB		cytopathic effect / MTT	10 µg/mL
Cc1cn([C@H]2C[C@H](F)[C@@H](COP(=O)(O)O)O2)c(=S)[nH]c1=O			syncytia	0.5 µM
CCCCC(Sc1cc(Cl)c(C)cc1S(=O)(=O)Nc1n[nH]c(N)n1)C(=O)OC	RF		cytopathic effect / XTT	>112 µM
Cc1occc1C(=S)Nc1ccc(Cl)c(C(=O)OC2CCCC2)c1	IIIB		syncytia	0.005 µg/mL
Fc1cccc(F)c1C1SCc2nc3ccccc3n21		RT-L100I	cytopathic effect	3.12 µM